Experimental data taken from patent publication US5149778A (Bio-Mega, Inc., priority 1989, dated 1992).
HELM strings list residues between dots; [ac] is acetyl, [am] amide, other brackets name non-standard units.

Test: peptide synthesis
Conditions: whole synthesis, analytical HPLC

Substance: PEPTIDE1{Y.V.I.D.D.L}$PEPTIDE1,PEPTIDE1,1:R1-4:R3$$$V2.0
- final HPLC purity: at least 95% homogeneous
